The data set in a line: general procedure: Fmoc solid-phase peptide synthesis; H-Cys(4-methoxytrityl)-2-chlorotrityl-resin; PyBOP, diisopropylethylamine. As to conditions: coupling step.

“2-(tubulysin B)hydrazinecarboxylic acid (3′nitropyridyl-2′-yl)disulfanylethyl ester”: the step yield was 89% yield.

Values taken from patent US10912840B2 (priority 2012, dated 2021).
